Legend:
[1] = general procedure: Fmoc solid-phase peptide synthesis; Fmoc-Rink-MBHA Low Loading Resin (EMD Millipore), 100-200 mesh, 0.3-0.4 meq/g; HBTU/DIPEA; conditions: whole synthesis, RP-HPLC, analytical LC-MS, scale of the general procedure 0.1 mmol, TFA salt
peptide synthesis = conditions: whole synthesis, TFA salt, cyclic

Substance: HOOC-(CH2)18-CO-(γGlu)-EKEKEKGS-4Pal-RRSS[CFGGRIDRIGHQSGLGC]PSFRHGGPSSGAPPPS-NH2
- final HPLC purity ([1]; one disulfide bridge): >95%

Substance: HOOC-(CH2)18-CO-(γGlu)-EKEKEKG-PEG24-EK-βAla-RSS[CFGKRIDRIGHQSGLGC]PSFRHGGKSSGAPPPS-NH2
- final HPLC purity (peptide synthesis): >95%

Substance: HOOC-(CH2)18-CO-(γGlu)-EKEKEKG-PEG24-EK-βAla-RSS[CFGKRIDRIGHQSGLGC]PSFRHGSPSSGAPPPS-NH2
- final HPLC purity (peptide synthesis): >95%

Substance: (BFAEN2-βAla)-EKEKEKG-PEG24-EK-βAla-RSS[CFGGKIDRIGHYSGLGC]PSFRHGGKSSGAPPPS-NH2
- final LC-MS purity ([1]; cyclic): >95.0%

Substance: BFA-EKEKEKGEKGRSS[CFGGKIDRIGHYSGLGC]PSFRHGGPSSGAPPPS-NH2
- final LC-MS purity ([1]; one disulfide bridge): >95.0%

Substance: HOOC-(CH2)18-CO-(γGlu)-EKEKEKG-PEG24-EK-βAla-RSS[CFGGKIDRIGHYSGLGC]PSFRHGSPSSGAPPPS-NH2
- final HPLC purity ([1]; cyclic): >95%

Substance: HOOC-(CH2)18-CO-(γGlu)-EKEKEKG-PEG24-EK-βAla-RSS[CFGGKIDRIGHQSGLGC]PSFRHGSPSSGAPPPS-NH2
- final HPLC purity (peptide synthesis): >95%

Reference: patent US20240174727A1 (Eli Lilly and Company, priority 2022, published 2024)
